Pooled drug test results. Numbers come from NIAID ChemDB, via PubChem.

Common to all: host cell toxicity; read-out: CC50

Blank or dashed fields: not listed here. CCn: concentration that lowers growth or viability of the cells by n%. Neighbouring rows are from separate reports.

SMILES	cell line	method	value
NC(=S)Nc1ccc2c(c1)C(=O)c1cc(Br)ccc1-2	Ava5-EG(delta4AB)SEAP	MTS	>1 µM
CC(C)C[C@@H]1NC(=O)[C@H](Cc2c[nH]c3ccccc23)NC(=O)CNC(=O)[C@H](CC(N)=O)NC(=O)[C@H](C(C)C)NC(=O)[C@@H](CC(C)C)NC1=O	Lung carcinoma cells	MTT	>30 µM
COC(=O)N[C@@H](Cc1ccccc1Cl)C(=O)N[C@@H](C)CCC[C@@H](CO)N(CCC(C)C)S(=O)(=O)c1ccc(N)cc1	T lymphoid cells	microscopy	>10 µM
NC(=S)Nc1cccc(OCCCCCCCc2ccccc2)c1	Ava5-EG(delta4AB)SEAP	MTS	>1 µM
CCOC(=O)c1c(O)c2c(-c3ccccc3)ccnc2n(O)c1=O	HeLa	-	0.53 µM
NC(=S)Nc1cccc(OCCCCCOc2ccc(-c3cccs3)cc2)c1	Ava5-EG(delta4AB)SEAP	MTS	>1 µM
COC(=O)C1=C(CN2CC(F)(F)[C@H]3[C@@H]2CCN3CC[C@@](C)(O)C(=O)O)NC(c2nccs2)=N[C@H]1c1ccc(F)c(F)c1F	HepG2.2.15	WST / absorbance	>100 µM
O=C(NCCc1ccc2c(n1)NCC(=O)O2)Nc1cccc(F)c1	PBMC	-	50 µM
CC[C@@H](CCC[C@@H](CO)N(C(C)C)S(=O)(=O)c1ccc(CO)cc1)NC(=O)[C@@H](N)C(c1ccccc1)c1ccccc1	T lymphoid cells	microscopy	>10 µM
NCc1ccccc1CNc1cc(=O)n(O)c2ncccc12	HeLa	-	0.14 µM
CC(C)N(Cc1cccc(OCCCCCC(=O)OC(=O)O)c1)C(=O)c1ccc(-c2ccc3cc[nH]c3c2)cc1	HEK 293	-	>20 µM
O=C(NCC(F)(F)F)c1c(O)c2cccnc2n(O)c1=O	HeLa	-	<100 µM
COC(=O)c1ccc(NC(=O)NCCc2ccc3c(n2)NCCC3)cc1	PBMC	-	50 µM
CCCN([C@H](CO)CCC[C@@H](NC(=O)[C@@H](NC(=O)OC)C(c1ccccc1)c1ccccc1)C1CC1)S(=O)(=O)c1ccc(N)cc1	T lymphoid cells	microscopy	>10 µM
CCOC(=O)C1=C(CN2CC(F)(F)[C@@H]3[C@H]2CON3CC[C@@](C)(OC)C(=O)O)NC(c2nccs2)=N[C@H]1c1ccc(F)c(F)c1Cl	HepG2.2.15	WST / absorbance	>50 µM
CCC(C)[C@@H]1NC(=O)[C@@H](C(C)CC)NC(=O)[C@H](CC(C)C)NC(=O)[C@H](Cc2c[nH]c3ccccc23)NC(=O)CNC(=O)[C@H](CC(N)=O)NC1=O	Colorectal carcinoma cells	MTT	>30 µM
NC(=S)Nc1cccc(OCCCCCOc2ccc(N3CCOCC3)cc2)c1	Ava5-EG(delta4AB)SEAP	MTS	>1 µM
O=C(NCC1CCc2ccccc2N1)Nc1ccc(Cl)cc1	PBMC	-	12.4 µM
CC(C)C[C@@H]1NC(=O)[C@H](Cc2c[nH]c3ccccc23)NC(=O)CNC(=O)[C@H](CCCCN)NC(=O)[C@H](C(C)C)NC(=O)[C@@H](CC(C)C)NC1=O	Colorectal carcinoma	MTT	22.1 µM
S=C(NCCc1ccccc1)Nc1cccc(OCCCCCc2ccccc2)c1	Ava5-EG(delta4AB)SEAP	MTS	>1 µM
CCOC(=O)CCCCCOc1cccc(CN(C(=O)c2ccc(-c3ccc4c(c3)OCO4)cc2)C(C)C)c1	HEK 293	-	>20 µM
S=C(Nc1cccc(OCc2ccccc2)c1)N1CCN(CCCc2ccccc2)C1=S	Ava5-EG(delta4AB)SEAP	MTS	>1 µM
COC(=O)C1=C(CN2CC(F)(F)[C@@H]3[C@H]2CON3C[C@H](O)C(C)(C)C(=O)O)NC(c2nccs2)=N[C@H]1c1cccc(F)c1Cl	HepG2.2.15	WST / absorbance	>100 µM
CCOC(=O)CC(=O)NCCc1ccc(OC)c(OC)c1	HEK 293	-	<7.5 µM
COC(=O)N[C@@H](Cc1ccccc1Cl)C(=O)N[C@H](CCC[C@@H](CO)N(C(C)C)S(=O)(=O)c1ccc(CO)cc1)C1CC1	T lymphoid cells	microscopy	>10 µM
COc1cc2c(cc1OC)C(C)=NCC2	RAJI	-	<7.5 µM
NCc1ccc(-c2cccc(-c3ccnc4c3c(O)cc(=O)n4O)c2)cc1	HeLa	-	<100 µM
CCOC(=O)C1=C(CN2CC(F)(F)[C@@H]3[C@H]2CON3C[C@H](O)C(C)(C)C(=O)O)NC(c2nccs2)=N[C@H]1c1ccc(F)cc1Cl	HepG2.2.15	WST / absorbance	100 µM
CC[C@@H](CCC[C@@H](CO)N(CC(C)C)S(=O)(=O)c1ccc(CO)cc1)NC(=O)[C@@H](NC)C(c1ccccc1)c1ccccc1	T lymphoid cells	microscopy	>10 µM
O=C(NCCCc1cnc2c(c1)CCCN2)Nc1ccc(Cl)c(Cl)c1	PBMC	-	7 µM
CCCN([C@H](CO)CCC[C@@H](NC(=O)[C@H](Cc1ccccc1Cl)NC(=O)OC)C(F)(F)F)S(=O)(=O)c1ccc(CO)cc1	T lymphoid cells	microscopy	>10 µM
O=C(NCCc1ccc2c(n1)NCCC2)Nc1ccccc1-c1ccccc1	PBMC	-	9 µM
CC(C)C[C@@H]1NC(=O)[C@H](Cc2c[nH]c3ccccc23)NC(=O)[C@H]2CCCN2C(=O)[C@H](CCCCN)NC(=O)[C@H](C(C)C)NC(=O)[C@@H](CC(C)C)NC1=O	Lung carcinoma cells	MTT	>30 µM

Again, the opening 5 rows:

NC(=S)Nc1ccc2c(c1)C(=O)c1cc(Br)ccc1-2 ; cell line: Ava5-EG(delta4AB)SEAP ; method: MTS ; value: >1 µM
CC(C)C[C@@H]1NC(=O)[C@H](Cc2c[nH]c3ccccc23)NC(=O)CNC(=O)[C@H](CC(N)=O)NC(=O)[C@H](C(C)C)NC(=O)[C@@H](CC(C)C)NC1=O ; cell line: Lung carcinoma cells ; method: MTT ; value: >30 µM
COC(=O)N[C@@H](Cc1ccccc1Cl)C(=O)N[C@@H](C)CCC[C@@H](CO)N(CCC(C)C)S(=O)(=O)c1ccc(N)cc1 ; cell line: T lymphoid cells ; method: microscopy ; value: >10 µM
NC(=S)Nc1cccc(OCCCCCCCc2ccccc2)c1 ; cell line: Ava5-EG(delta4AB)SEAP ; method: MTS ; value: >1 µM
CCOC(=O)c1c(O)c2c(-c3ccccc3)ccnc2n(O)c1=O ; cell line: HeLa ; value: 0.53 µM